Pooled drug test results. Numbers come from NIAID ChemDB, via PubChem.

Common to all: growth or infection tests; organism: Hepatitis C virus; measure: EC50

Rows are shuffled and stem from different studies. Blank or dashed fields: not listed here. ECn: concentration that inhibits the pathogen or its effect by n%.

smiles	strain or isolate	method	mutations	cells	result
C[C@@]1(O)[C@H](O)[C@@H](CO)O[C@H]1c1ccc2c(N)ncnn12	GT5a	PCR		Huh7.5	0.82 µM
CC[C@H]1C[C@]1(NC(=O)[C@@H]1C[C@@H]2CN1C(=O)[C@H](C(C)(C)C)NC(=O)OCC(C)(C)CCCCc1cccc3c1CN(C3)C(=O)O2)C(=O)NS(=O)(=O)C1CC1	S52	antigen		Huh7.5	1.662 µM
Fc1ccccc1-c1nc2ccn(Cc3ccc(-c4ccc(C(F)(F)F)cc4C(F)(F)F)nn3)cc-2n1	1b	luciferase		Huh7	0.0015 µM
CCN(CC)CCN1C(=O)c2cccc3cc(N)cc(c23)C1=O	JFH-1	PCR		Huh7-1	16.4 µM
Cc1ccccc1C(=O)Nc1cccc(Cn2nc(C(N)=O)c3ccccc32)c1	J399EM	fluorescence		Huh7.5.1	0.035 µM
N#Cc1c(-c2ccc(F)cc2)nc(SCc2nc3ccccc3[nH]2)[nH]c1=O		replicon / PCR		Huh7	0.231 µM
CC(C)(C)OC(=O)N[C@@H]1CCCCC/C=C\[C@@H]2C[C@@]2(C(=O)NS(=O)(=O)C2CC2)NC(=O)[C@@H]2C[C@@H](OC(=O)N3Cc4cccc(F)c4C3)CN2C1=O	J6	antigen		Huh7.5	0.111 µM
N#Cc1c(-c2ccccc2Cl)nc(SCc2nc3ccccc3[nH]2)[nH]c1=O		replicon / PCR		Huh7	0.245 µM
COc1cccc(C(=O)Nc2cccc(Cn3nc(C(N)=O)c4ccccc43)c2)c1	J399EM	fluorescence		Huh7.5.1	0.346 µM
CC(C)n1c(/C=C/[C@@H](O)C[C@@H](O)CC(=O)O)c(-c2ccc(F)cc2)c2ccccc21		luciferase / replicon		Huh 5-2	1.8 µM
CO[C@H]1[C@@H](O)[C@@H](C)O[C@H](O[C@H]2[C@H](Oc3cccc4c(O)c5c(=O)oc6ccc(C)c7c(=O)oc(c34)c5c67)O[C@H](C)[C@H](O)[C@@H]2O)[C@@H]1O	sg1a (H77)	PCR		Huh7-1	1.4 µM
Fc1ccccc1-c1nc2ccn(Cc3ccc(-c4ccc(C(F)(F)F)cc4C(F)(F)F)nn3)cc-2n1	GT2a	luciferase / replicon		Huh7	10.96 µM
CNC(=O)c1c(-c2ccc(F)cc2)oc2cc(N(CCO)S(C)(=O)=O)c(C3CC3)cc12	1a	luciferase		Huh7	0.0077 µM
O=C(O)c1c(-c2ccc(F)cc2)nc(NCc2nc3ccccc3[nH]2)[nH]c1=O		replicon / PCR		Huh7	0.546 µM
CNC(=O)c1c(-c2ccc(F)cc2)oc2cc(N(CCO)S(C)(=O)=O)c(C3CC3)cc12	GT3a	luciferase / replicon		Huh7.5	0.0399 µM
CC1=CC[C@H](C(=O)N(c2cc(C#CC(C)(C)C)sc2C(=O)O)C2CCC(O)(CO[C@H]3CCOC3)CC2)CC1	GT4a	luciferase		Huh7-Lunet	0.348 µM
CCCCn1cnc2c(c(CC#N)nn2-c2ccccc2)c1=N	JFH-1	PCR		Huh7-1	4.2 µM
O=C(O)c1c(-c2ccco2)nc(SCc2nc3ccccc3[nH]2)[nH]c1=O		replicon / PCR		Huh7	0.181 µM
CC(=O)Nc1ccc(-c2ccc(Cl)cc2)c(COc2ccc(-c3nc4cc(C(=O)O)ccc4n3C3CCCCC3)cc2)c1	2a	luciferase		Huh7	7.408 µM
CC1CCC(C(=O)N(c2cc(C#CC(C)(C)C)sc2C(=O)O)C2CCC(O)CC2)CC1	GT4a	luciferase		Huh7-Lunet	2.275 µM
O=C(O)c1ccc2c(c1)nc(-c1ccc(OCc3cc(N4CCCC4=O)ccc3-c3ccc(Cl)cc3)cc1F)n2C1CCCCC1	GT3a	luciferase / replicon		Huh7.5	1.508 µM
NC(=O)c1nn(Cc2cccc(NC(=O)c3ccc(C(F)(F)F)cc3)c2)c2ccccc12	J399EM	fluorescence		Huh7.5.1	0.044 µM
CCC[C@H](NC(=O)[C@@H]1[C@H]2CCC[C@H]2CN1C(=O)[C@@H](NC(=O)[C@@H](NC(=O)c1cnccn1)C1CCCCC1)C(C)(C)C)C(=O)C(=O)NC1CC1	genotype 1b	luciferase / reporter gene	Y93N	Huh7.5	0.1581 µM
Cc1c2cc[n+](CCN3CCCCC3)cc2c(C)c2c1[nH]c1ccc(O)cc12	JFH-1	PCR		Huh7-1	2.5 µM
C=CC(=O)NCC(=O)N1C[C@H](Oc2nccc3ccc(Br)cc23)C[C@H]1C(=O)N[C@]1(C(=O)NS(=O)(=O)C2CC2)C[C@H]1C=C	1b A156T	luciferase			0.208 µM
Cc1cc(N2CCOCC2)nc2ccc(Cc3ccc4nc(N5CCOCC5)cc(C)c4c3)cc12	JFH-1	PCR		Huh7-1	3.6 µM
NC(=O)c1nn(Cc2cccc(NC(=O)c3cccc(F)c3)c2)c2ccccc12	J399EM	fluorescence		Huh7.5.1	0.238 µM